The source of these data is patent US20110064668A1, “J-superfamily conotoxin peptides” (published 2011).

The IC50 is the concentration needed to halve the response being measured. Higher therefore signals weaker potency.

What all share (test): cell-based or functional assay
In assay [1] the target is α1β1εδ subtype of mouse muscle nAChR (mouse), P04756.
Another assay has as its target Kv1.6 channel.
The target in assay [2] is α3β4 subtype of rat neuronal nAChR (rat), P04757.

For FPRPRICNLACRAGIGHAYPFCHCR (modifications not checked) [pl14a[K18A]], the IC50 in assay [1] came out at 0.796 µM; in the assay with Kv1.6 channel, 7.88 µM; in assay [2], 11.5 µM.
